Measured values from several laboratories, pooled; numbers as filed in NIAID ChemDB.

Common to all: whole-cell or culture tests; organism: Rhinovirus; method: cytopathic effect; read-out: EC50

Rows are shuffled and stem from different studies. An empty or dashed field is not shown. ECn is the concentration giving n% inhibition of infection, replication or growth.

structure,strain or isolate,cell line,value
CNC(=O)/C=C(\c1ccccc1)c1ccc2nc(N)c(-c3ccccc3)n2c1,TYPE 14,H-HELA,0.3 µg/mL
C=CCc1nc(C)n2c(=O)[nH]c(=S)[nH]c12,TYPE 1A,WI-38,>100 µg/mL
CSc1nsc(-c2ccc(OS(=O)(=O)c3ccc(C)cc3)cc2)c1C#N,Serotype 39 (group B),HELA-OHIO,>25 µM
CC1=NN(c2c(Cl)cc(Cl)cc2Cl)C(=O)C1,Serotype 13,WI-38,2.5 µM
CS(=O)(=O)c1ccc(Cc2ccc(Cl)c(Cl)c2)nc1,TYPE 5,HeLa,>10 µg/mL
COCc1cc(CCCOc2c(Cl)cc(-c3noc(C)n3)cc2Cl)on1,Serotype 15,HeLa,0.137 µg/mL
CNC(=O)/C=C(\c1ccccc1)c1ccc2nc(N)c(-c3ccc(F)cc3C(F)(F)F)n2c1,TYPE 14,H-HELA,0.48 µg/mL
CSc1nsc(-c2ccc(OCCCCOc3ccccc3)cc2)c1C#N,Serotype 51 (group B),HELA-OHIO,>20 µM
CCOc1nc2ccc(OCCC3CCN(c4cc(C)c(C)nn4)CC3)cc2o1,Serotype 2,MRC-5,0.101 µg/mL
Cc1ccc(C(=O)CCCCCCOc2ccc(C3=NCC(C)O3)cc2)s1,TYPE 2,HeLa,2.07 µM
NSc1ncnc2c1ncn2[C@H]1C[C@H](O)[C@@H](CO)O1,TYPE 1A,,>320 µM
COc1ccc2nc([C@H](OC(C)=O)[C@@H](OC(C)=O)c3nc4ccc(OC)cc4[nH]3)[nH]c2c1,Serotype 42,WI-38,10 µg/mL
N#Cc1ccc(C2CCc3cc(C#N)ccc3O2)cc1,Serotype 1B,HeLa,0.32 µM
Cc1ccc(CON2CNc3c(ncn3[C@@H]3O[C@H](CO)[C@@H](O)[C@H]3O)C2=N)cc1,Type 1A/strain 2060,KB,100 µg/mL
N=C(N)c1ccc(C2=Cc3cc(C(=N)N)ccc3OC2)cc1,Serotype 1B,HeLa,>40 µM
CCOc1noc2cc(OCCCCCc3cc(C)no3)ccc12,Serotype 14,MRC-5,0.012 µg/mL
COC(=O)c1cc(CCCOc2c(C)cc(-c3noc(C)n3)cc2C)on1,Serotype 21,HeLa,0.004 µg/mL
CCOC(=O)c1ccc(OCCCCC(=O)c2ccc(C)s2)cc1,TYPE 2,HeLa,1.3 µM
Cc1c(-c2ccccc2)n(-c2cccc(F)c2)c2ccc(C(C)C)cc2c1=O,31/41F,HELA-OHIO,0.045 µg/mL
CS(=O)(=O)c1ccc(Cc2ccc(F)cc2)nc1,TYPE 1A,HeLa,2.5 µg/mL
Cc1cccc(CON2CNc3c(ncn3[C@@H]3O[C@H](CO)[C@@H](O)[C@H]3O)C2=N)c1,Type 1A/strain 2060,KB,100 µg/mL
Cc1c(-c2ccccc2)n(-c2ccc(F)cc2)c2ccc(C(C)C)cc2c1=O,14/1059,HELA-OHIO,>2 µg/mL
Brc1ccc(C2=Cc3cc(Br)ccc3OC2)cc1,Serotype 1B,M-HELA,3.28 µM
COC(=O)C(Cc1ccc(OCCCCCCC(=O)c2ccc(C)s2)cc1)NC(C)=O,TYPE 14,HeLa,>83 µM
CCOc1nc2ccc(OCCC3CCN(c4ccc(C)nn4)CC3)cc2o1,Serotype 14,MRC-5,0.007 µg/mL
Cc1ccc(C(=O)CCCCCCOc2ccc(C3=NC(C)CO3)cc2)s1,TYPE 2,HeLa,1.29 µM
CS(=O)(=O)c1ccc(Oc2ccc(Cl)c(Cl)c2)nc1,29,,4.1 µM
CSc1nsc(-c2ccc(OCCc3ccccc3)cc2)c1C#N,Serotype 59 (group B),HELA-OHIO,>20 µM
C=CCc1nc(C)n2c(=O)[nH]c(NC(C)=O)nc12,TYPE 1A,WI-38,>200 µg/mL
CSc1nsc(-c2ccc(OC(C)(C)C)cc2)c1C#N,Serotype 9 (group B),HELA-OHIO,5 µM
COc1ccc2nc([C@H](O)[C@@H](O)c3nc4ccc(OC)cc4[nH]3)[nH]c2c1,Serotype 42,WI-38,0.1 µg/mL
CSc1nsc(-c2ccc(OCCOc3ccccc3)cc2)c1C#N,Serotype 85 (group B),HELA-OHIO,>20 µM
COc1ccc(OC)c2[nH]c([C@H](O)[C@@H](O)c3nc4c(OC)ccc(OC)c4[nH]3)nc12,Serotype 1A,WI-38,320 µg/mL
Cc1nc(-c2cc(C)c(OCCCc3cc(C4CC4)no3)c(C)c2)no1,Serotype 14,HeLa,0.039 µg/mL
NS(=O)c1ncnc2c1ncn2[C@@H]1O[C@H](CO)[C@@H](O)[C@@H]1O,TYPE 1A,,>320 µM
CCOc1nc2ccc(OCCC3CCN(c4nnnn4C)CC3)cc2o1,Serotype 14,MRC-5,0.25 µg/mL
CC(=O)Nc1nc2c(CC(O)CO)ncn2c(=O)[nH]1,TYPE 9,WI-38,>400 µg/mL
NSc1ncnc2c1ncn2[C@@H]1O[C@H](CO)[C@@H](O)[C@@H]1O,TYPE 1A,,>320 µM
CSc1nsc(-c2ccc(OCc3ccccc3)cc2)c1C#N,Serotype 59 (group B),HELA-OHIO,12 µM
CCOC(=O)c1ccc(OCCCCOc2ccc(-c3snc(SC)c3C#N)cc2)cc1,Serotype 59 (group B),HELA-OHIO,>2 µM
CS(=O)(=O)c1ccc(NCc2ccc(Cl)c(Cl)c2)nc1,TYPE 10,HeLa,2.5 µg/mL
Cc1ccc(CCCOc2c(C)cc(-c3noc(C(F)F)n3)cc2C)nn1,serotypes 3 4 5 9 16 18 38 66 75 67,HeLa,0.033 µg/mL
Cc1nc(N)c2ncn([C@@H]3O[C@H](CO)[C@@H](O)[C@H]3O)c2n1,Type 1A/strain 2060,KB,100 µg/mL
CCOC(=O)c1ccc(OCCC2CCN(c3ccc(C)nn3)CC2)cc1,Serotype 39,HeLa,<0.1 µg/mL
Cc1ccc(CCCOc2c(C)cc(-c3nnn(C)n3)cc2C)o1,serotypes 2 14 1A 1B 6 21 22 15 25 30 50 67 89 86 41,HeLa,0.128 µg/mL
CCC1COC(c2ccc(OCCCCCCC(=O)c3ccc(C)s3)cc2)=N1,TYPE 14,HeLa,0.5 µM
CCOc1ccc2nc([C@H](O)[C@@H](O)c3nc4ccc(OCC)cc4[nH]3)[nH]c2c1,Serotype 42,WI-38,1 µg/mL
CC(C)S(=O)(=O)n1c(N)nc2ccc(/C(=N/O)c3ccccc3)cc21,,HeLa,0.04 µg/mL
N#Cc1cc([N+](=O)[O-])ccc1Oc1ccc(Cl)c(Cl)c1,TYPE 5,HeLa,0.6 µg/mL
N=c1c2ncn([C@H]3C[C@H](O)[C@@H](CO)O3)c2ncn1O,Type 1A/strain 2060,KB,10 µg/mL
N#Cc1ccc2c(c1)CC(c1ccccc1)CO2,Serotype 1B,HeLa,>8 µM
CCSc1nc2ccc(OCCC3CCN(c4ccc(Cl)nn4)CC3)cc2o1,Serotype 14,MRC-5,0.02 µg/mL
Brc1ccc2c(c1)C=C(c1ccccc1)CO2,Serotype 1B,M-HELA,1.92 µM
Cc1ccc(C(=O)CCCCOc2ccc(C3=NCC(C)O3)cc2)s1,TYPE 2,HeLa,1.96 µM
Cc1ccccc1CO[n+]1cnc2c(ncn2[C@@H]2O[C@H](CO)[C@@H](O)[C@H]2O)c1N.F[B-](F)(F)F,Type 1A/strain 2060,KB,320 µg/mL
Nc1nc2c(ncn2COC(CO)CO)c(=O)[nH]1,TYPE 2,HeLa,>400 µg/mL
CS(=O)(=O)c1cnc2c(c1)CCC(c1ccc(Cl)c(Cl)c1)O2,Serotype 2 (drug-resistant),HeLa,>1 µg/mL
Brc1ccc(C2=Cc3ccccc3OC2)cc1,Serotype 1B,M-HELA,2.09 µM
CCCc1ccc(CCCOc2c(C)cc(-c3nnn(C)n3)cc2C)o1,serotypes 2 14 1A 1B 6 21 22 15 25 30 50 67 89 86 41,HeLa,0.453 µg/mL
COc1ncnc2c1ncn2[C@@H]1O[C@H](CO)[C@@H](O)[C@@H]1O,TYPE 1B,,>100 µM
CS(=O)(=O)c1ccc(Oc2ccc(C(=O)c3ccccc3)cc2)nc1,TYPE 1A,HeLa,>10 µg/mL
N=C(N)c1ccc(C2=Cc3ccccc3OC2)cc1,Serotype 1B,HeLa,>40 µM
Nc1ccn([C@@H]2C=C(CO)[C@@H](O)[C@H]2O)c(=O)n1,TYPE 9,WI-38,2 µg/mL
CSc1nsc(-c2ccc(OCCCOc3ccccc3)cc2)c1C#N,Serotype 70 (group A),HELA-OHIO,>20 µM
N=C(N)c1ccc(C2CCc3ccccc3O2)cc1,Serotype 1B,HeLa,8 µM

8 of the rows above, restated:

structure,strain or isolate,cell line,value
Brc1ccc(C2=Cc3ccccc3OC2)cc1,Serotype 1B,M-HELA,2.09 µM
N#Cc1cc([N+](=O)[O-])ccc1Oc1ccc(Cl)c(Cl)c1,TYPE 5,HeLa,0.6 µg/mL
C=CCc1nc(C)n2c(=O)[nH]c(=S)[nH]c12,TYPE 1A,WI-38,>100 µg/mL
NSc1ncnc2c1ncn2[C@H]1C[C@H](O)[C@@H](CO)O1,TYPE 1A,,>320 µM
CCOC(=O)c1ccc(OCCCCC(=O)c2ccc(C)s2)cc1,TYPE 2,HeLa,1.3 µM
N=C(N)c1ccc(C2=Cc3cc(C(=N)N)ccc3OC2)cc1,Serotype 1B,HeLa,>40 µM
CSc1nsc(-c2ccc(OC(C)(C)C)cc2)c1C#N,Serotype 9 (group B),HELA-OHIO,5 µM
CC1=NN(c2c(Cl)cc(Cl)cc2Cl)C(=O)C1,Serotype 13,WI-38,2.5 µM